Compound potency records, mixed from different reports. Data source: NIAID ChemDB in PubChem.

Shared fields: growth or infection tests; species: Candida tropicalis; measure: MIC100

MIC50, MIC90 and the like: level of inhibition, or share of isolates inhibited. Blank or dashed fields: not listed here. Conditions beyond the fields shown may differ between rows.

SMILES	strain or isolate	method	result
C[C@H]1[C@H](O)[C@@H](C)/C=C/C=C/C=C/C=C/C=C/C=C/C=C/[C@H](O[C@@H]2O[C@H](C)[C@@H](O)[C@H](N)[C@@H]2O)C[C@@H]2O[C@](O)(C[C@@H](O)C[C@@H](O)CC[C@H](O)[C@@H](O)C[C@@H](O)CC(=O)O[C@H]1C)C[C@H](O)[C@H]2C(=O)O	MTCC 1406	broth dilution	1 µg/mL
Nc1ccc(S(=O)(=O)N(n2sc3ccccc3c2=O)S(=O)(=O)c2ccc(N)cc2)cc1	ATCC 1369	-	>100 µg/mL
Brc1cnc2[nH]c(CN3CCOCC3)cc2c1	ATCC 201380	-	31.3 µg/mL
O/N=C\c1ccc(O)cc1	-	broth dilution	>7290 µM
Cc1cnc2[nH]c(-c3ccccc3)cc2c1	ATCC 201380	-	31.3 µg/mL
CC(=O)Nc1ccc(S(=O)(=O)Nn2sc3ccc(C)cc3c2=O)cc1	ATCC 1369	-	>100 µg/mL
C[C@H]1[C@H](O)[C@@H](C)/C=C/C=C/C=C/C=C/C=C/C=C/C=C/[C@H](O[C@@H]2O[C@H](C)[C@@H](O)[C@H](N)[C@@H]2O)C[C@@H]2O[C@](O)(C[C@@H](O)C[C@@H](O)CC[C@H](O)[C@@H](O)C[C@@H](O)CC(=O)O[C@H]1C)C[C@H](O)[C@H]2C(=O)O	-	broth dilution	<0.3 µg/mL
O/N=C\c1ccccc1	-	-	4130 µM
COc1ccc(-c2cc3cc(C)cnc3[nH]2)cc1	ATCC 201380	-	15.6 µg/mL
CC(C)C[C@@H]1NC(=O)[C@H](C(C)C)NC1=O	MTCC 184	broth dilution	16 µg/mL
O/N=C/c1ccc(O)cc1	-	-	>7290 µM
O=C(Oc1cc2cc(Br)cnc2[nH]1)c1ccccc1	ATCC 201380	-	15.6 µg/mL
Cc1ccc2sn(N(S(=O)(=O)c3ccc(N)cc3)S(=O)(=O)c3ccc(N)cc3)c(=O)c2c1	ATCC 1369	-	>100 µg/mL
O=C(O[C@@H]1COC(=O)c2cc(O)c(O)c(O)c2-c2c(cc(O)c(O)c2O)C(=O)OC1C1OC(=O)c2cc(O)c(O)c(O)c2-c2c(O)c(O)c(O)c3c2C(=O)OC1[C@H]3O)c1cc(O)c(O)c(O)c1	ATCC 750	broth dilution	580 µg/mL
O/N=C\c1ccccc1Cl	-	-	1420 µM
Brc1cnc2[nH]c(CN3CCCCC3)cc2c1	ATCC 201380	-	31.3 µg/mL
C[C@H]1[C@H](O)[C@@H](C)/C=C/C=C/C=C/C=C/C=C/C=C/C=C/[C@H](O[C@@H]2O[C@H](C)[C@@H](O)[C@H](N)[C@@H]2O)C[C@@H]2O[C@](O)(C[C@@H](O)C[C@@H](O)CC[C@H](O)[C@@H](O)C[C@@H](O)CC(=O)O[C@H]1C)C[C@H](O)[C@H]2C(=O)O	CCC 131	broth dilution / absorbance	0.5 µg/mL
O=[N+]([O-])c1cccc(/C=N\O)c1	-	-	3010 µM
Cc1ccc(-c2c3c(N)c4c(nc3nc3c2c(C)nn3-c2ccccc2)CCCC4)cc1	CCC 131	broth dilution / absorbance	31.2 µg/mL
O/N=C\c1cccs1	-	-	3930 µM
FC(F)(F)c1cc(-c2cc3cc(Br)cnc3[nH]2)cc(C(F)(F)F)c1	ATCC 201380	-	31.3 µg/mL